Pooled drug test results. Numbers come from NIAID ChemDB, via PubChem.

Shared fields: whole-cell or culture tests; organism: HIV-1; cell line: MT-2; endpoint: fold resistance

Fold resistance has wild type as its base.

smiles,strain,mutations,read by,result
C[C@H](Cn1cnc2c(N)ncnc21)OCP(=O)(O)O,74V (ddI- ddC-resistant RT L74V),RT-L74V,p24,0.941
O=c1[nH]cnc2c1ncn2[C@H]1CC[C@@H](CO)O1,RT P119S L214F,RT-P119S L214F,p24,1.1
Cc1cn([C@H]2C[C@H](N=[N+]=[N-])[C@@H](CO)O2)c(=O)[nH]c1=O,Site-directed mutant,RT-K65R,cytopathic effect / XTT,1.3
Cc1cn([C@H]2C=C[C@@H](CO)O2)c(=O)[nH]c1=O,,RT-T69G,p24,6.3
C[C@H](Cn1cnc2c(N)ncnc21)OCP(=O)(O)O,Site-directed mutant,RT-K65R H221Y,cytopathic effect / XTT,3.6
Cc1cn([C@H]2C[C@H](N=[N+]=[N-])[C@@H](CO)O2)c(=O)[nH]c1=O,NL4-3,RT-I178L,p24,0.667
CCN(c1nc(F)ccc1NC(C)(C)C)C1CCN(C(=O)c2cc3cc(NC(=O)N4CCN(C)CC4)ccc3[nH]2)CC1,IIIB,K112M K113E V128I,p24 / ELISA,1.5
Nc1nc2c(ncn2[C@H]2CO[C@@H](CO)O2)c(=O)[nH]1,,RT-Q151M A62V,cytopathic effect / MTT,>23
CCOP(=O)(COc1ccc(C[C@H](NC(=O)O[C@H]2CO[C@H]3OCC[C@H]32)[C@H](O)CN(CC(C)C)S(=O)(=O)c2ccc(OC)cc2)cc1)OCC,IIIB,K112M K113E V128I M200I H219P,p24 / ELISA,3.6
Nc1ncnc2c1ncn2[C@@H]1O[C@H](CO)C[C@@H]1F,RT P119S V179D L214F,RT-P119S V179D L214F,p24,4
Cc1cn([C@H]2C[C@H](N=[N+]=[N-])[C@@H](CO)O2)c(=O)[nH]c1=O,IIIB,R41K,p24 / ELISA,0.5
Nc1ncnc2c1ncn2CCOCP(=O)(O)O,L214F(RT-L214F),RT-L214F,p24,0.9
Cc1cn([C@H]2C[C@H](N=[N+]=[N-])[C@@H](CO)O2)c(=O)[nH]c1=O,,RT-Q151M V75I,cytopathic effect / MTT,>20
Nc1nc(NC2CC2)c2ncn([C@H]3C=C[C@@H](CO)C3)c2n1,RT-T69G K103N,1(T69G+K103N),p24,8.3
Cc1cn([C@H]2C[C@H](N=[N+]=[N-])[C@@H](CO)O2)c(=O)[nH]c1=O,RT P119S V179D L214F,RT-P119S V179D L214F,p24,1.2

The last 2 rows once more:

| smiles | strain | mutations | read by | result |
|---|---|---|---|---|
| Nc1nc(NC2CC2)c2ncn([C@H]3C=C[C@@H](CO)C3)c2n1 | RT-T69G K103N | 1(T69G+K103N) | p24 | 8.3 |
| Cc1cn([C@H]2C[C@H](N=[N+]=[N-])[C@@H](CO)O2)c(=O)[nH]c1=O | RT P119S V179D L214F | RT-P119S V179D L214F | p24 | 1.2 |

An empty or dashed field is not shown. Neighbouring rows are from separate reports.